{"source": "paper PMC12314560", "biological_target": "S1-antibody", "assay": "BLI", "settings": "domain or fragment", "data": [{"substance": "Recombinant protein of wild-type SARS-CoV-2 spike subunit 1 (from UniProt P0DTC2)", "values": [{"measurement": "Kd", "result": 0.603, "unit": "nM"}]}]}
